Compound potency records, mixed from different reports. Data source: NIAID ChemDB in PubChem.

Common to all: growth or infection tests; agent: Epstein-Barr virus; measure: EC50

Conditions beyond the fields shown may differ between rows. An empty or dashed field is not shown. ECn is the concentration giving n% inhibition of infection, replication or growth.

compound	method	cells	value
N#CCCn1c2ccccc2c2c3c(c4c5ccccc5[nH]c4c21)C(=O)NC3	-	Akata	<0.004 µM
O=P(O)(O)COCCn1cnc2c(NC3CC3)ncnc21	hybridisation	P3HR-1	9 µg/mL
Nc1ccn([C@@H]2C[C@@H](O)[C@H](CO)O2)c(=O)n1	-	DAUDI	>50 µM
Nc1nc(NC2CC2)c2ncn(C=C3CC3CO)c2n1	hybridisation	H-1	4 µM
Nc1ncnc2c1ncn2C[C@@H](CF)OCP(=O)(O)O	hybridisation	P3HR-1	≥10 µg/mL
Nc1nc2c(ncn2COC(CO)CO)c(=O)[nH]1	PCR	P3HR-1	0.14 µg/mL
COC(=O)[C@H](C)NP(=O)(OC[C@H]1C/C1=C/n1cnc2c(=O)[nH]c(N)nc21)Oc1ccccc1	hybridisation	H-1	>10 µM
Nc1ncc2c(ncn2COC(CO)CO)n1	hybridisation	P3HR-1	0.0005 µg/mL
Nc1[nH]c(=O)nc2c1ncn2/C=C1/C[C@H]1CO	hybridisation	H-1	>20 µM
Nc1nc2c(ncn2[C@@H]2O[C@H](CO)[C@H]2CO)c(=O)[nH]1	hybridisation	P3HR-1	0.16 µg/mL
Cc1cccc2c1OP(=O)(OC[C@H]1O[C@@H](n3cc(/C=C/Br)c(=O)[nH]c3=O)C[C@@H]1OC(=O)C(C)C)OC2	-	P3HR-1	>171 µM
Nc1nc(F)nc2c1ncn2/C=C1\CC1CO	hybridisation	H-1	>20 µM
Cc1cccc2c1OP(=O)(OC[C@H]1O[C@@H](n3cc(/C=C/Br)c(=O)[nH]c3=O)C[C@@H]1OC(=O)C(C)(C)C)OC2	-	P3HR-1	>83.4 µM
C=CCNc1ncnc2c1ncn2C[C@@H](C)OCP(=O)(O)O	hybridisation	P3HR-1	1.5 µg/mL
COC(=O)[C@]1(O)C[C@@H]2O[C@@]1(C)n1c3ccccc3c3c4c(c5c6ccccc6n2c5c31)C(=O)NC4	-	Akata	0.02 µM
Nc1ncnc2c1ncn2[C@@H]1C[C@@H](O)[C@H](CO)O1	-	DAUDI	5.7 µM
CC(=O)O[C@H]1C[C@H](n2cc(/C=C/Br)c(=O)[nH]c2=O)O[C@@H]1COP1(=O)OCc2cccc(C)c2O1	-	P3HR-1	>89.7 µM
CO[C@@H]1[C@@H](OC(N)=O)[C@@H](O)[C@H](Oc2ccc3c(O)c(NC(=O)c4ccc(O)c(CC=C(C)C)c4)c(=O)oc3c2C)OC1(C)C	PCR	P3HR-1	70.7 µM
COC(=O)[C@H](C)NP(=O)(OCC1C/C1=C\n1cnc2c(N)ncnc21)Oc1ccccc1	hybridisation	H-1	4 µM
COC(=O)C(C)NOP(OC[C@H]1C/C1=C/n1cnc2c(N)[nH]c(=O)nc21)Oc1ccccc1	hybridisation	H-1	>20 µM
Nc1ccn(C[C@@H](CO)OCP(=O)(O)O)c(=O)n1	PCR	P3HR-1	0.065 µg/mL

The last 3 rows once more:

compound,method,cells,value
COC(=O)[C@H](C)NP(=O)(OCC1C/C1=C\n1cnc2c(N)ncnc21)Oc1ccccc1,hybridisation,H-1,4 µM
COC(=O)C(C)NOP(OC[C@H]1C/C1=C/n1cnc2c(N)[nH]c(=O)nc21)Oc1ccccc1,hybridisation,H-1,>20 µM
Nc1ccn(C[C@@H](CO)OCP(=O)(O)O)c(=O)n1,PCR,P3HR-1,0.065 µg/mL